PubChem BioAssay AID624099, ICCB-Longwood – 2012
Test: 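Human genes that papillomavirus E2 requires to repress the HPV18 LCR promoter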 (primary screen). Cell system: human C33A cervical carcinoma cells (HPV-negative) stably expressing BPV1 E2 and an HPV18 LCR luciferase reporter. Reagent: siRNA pool against human genes, 40 nM. Timing: 72 h. Measured: 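HPV18 LCR reporter light per well, converted to plate-wise z-scores that exclude control wells, and averaged over triplicate plates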. Reading the numbers: mean z-score and z-score: higher = stronger reporter signal, weaker E2 silencing. Active means: 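Mean z ≥ 2 together with z ≥ 2 in two or more of the three replicates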.
Shown is one part, drawn at random, of about 21,000 reagents tested. 497 of them (2.4%) were called active. 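Higher z means weaker E2 silencing; only reporter increases were scored, and knock-downs that hurt cell survival may mask genuine repressor factors.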 Reagents against one gene are numbered here. Reagent sequences are not shown.

gene,reagent no.,mean z-score,"z-score, replicate A","z-score, replicate B","z-score, replicate C",Call
PEBP4,1,-0.07,-0.21,-0.31,0.3,inactive
NHSL2,1,-0.88,-0.87,-0.82,-0.95,inactive
NHSL2,2,0.89,0.7,1.23,0.73,inactive
ZNF92,1,-0.5,-0.56,-0.27,-0.68,inactive
BCDIN3D,1,0.94,1.04,0.73,1.05,inactive
NPEPPS,1,-0.74,-0.77,-0.81,-0.63,inactive
VWA5B2,1,0.81,1.07,0.43,0.93,inactive
ONECUT1,1,0.61,0.52,0.74,0.57,inactive
RAD51C,1,-0.2,-0.02,-0.17,-0.4,inactive
LINC00314,1,0.14,0.03,0.22,0.18,inactive
HSPA2,1,-0.63,-0.56,-0.78,-0.55,inactive
NDRG2,1,0.88,0.95,1.18,0.52,inactive
BEST1,1,0.85,1,0.7,0.84,inactive
SATB2,1,-1.44,-1.8,-1.86,-0.66,inactive
NKAIN1,1,-0.65,-0.82,-0.94,-0.18,inactive
RCAN2,1,1.2,1.52,0.95,1.13,inactive
SBSPON,1,0.27,0.06,0.53,0.21,inactive
WWC2-AS2,1,0.32,0.2,0.8,-0.03,inactive
KCNK13,1,-0.54,-0.4,-0.44,-0.79,inactive
BCL2L11,1,0.14,0.12,0.26,0.03,inactive
OTOA,1,1.44,1.49,1.45,1.38,inactive
OR7A5,1,-0.15,-0.12,-0.07,-0.26,inactive
LRCH2,1,-0.42,-0.53,-0.5,-0.23,inactive
MYL6B,1,-0.65,-0.97,-0.29,-0.68,inactive
SYTL1,1,0.48,0.67,0.36,0.41,inactive
KCNIP1,1,-0.45,-0.4,-0.56,-0.4,inactive
KRTAP19-4,1,0.01,0.08,0.01,-0.07,inactive
MCFD2,1,-0.02,0.22,-0.46,0.19,inactive
EPB41L1,1,-0.54,-0.89,-0.46,-0.27,inactive
PKP2,1,-0.65,-0.71,-0.8,-0.45,inactive
CCDC160,1,-0.02,-0.08,0.13,-0.1,inactive
PSD2,1,-0.19,-0.38,0.03,-0.22,inactive
CCDC63,1,1.75,1.56,1.48,2.22,inactive
LINC02011,1,1.03,1.55,0.59,0.95,inactive
ACTRT3,1,-1.88,-2.11,-1.73,-1.8,inactive
PLA2G2A,1,0.85,1.13,0.51,0.91,inactive
SERF2,1,1.1,1.42,1.2,0.67,inactive
STK40,1,0.7,0.25,0.88,0.96,inactive
PAX5,1,-0.5,-0.81,-0.35,-0.34,inactive
TTN,1,-0.69,-0.72,-0.67,-0.67,inactive
RBBP4,1,-0.98,-0.89,-0.8,-1.24,inactive
NME6,1,0.67,0.69,0.78,0.55,inactive
DRC9,1,-0.8,-0.83,-0.96,-0.62,inactive
MLIP,1,-0.98,-1.33,-0.97,-0.63,inactive
RPE,1,0.79,0.55,0.95,0.86,inactive
TMUB1,1,-2.14,-2.35,-1.91,-2.16,inactive
LOC389665 (retired record),1,0.24,0.23,0.2,0.27,inactive
TAS2R8,1,0.03,-0.07,0.2,-0.03,inactive
ERH,1,-0.91,-0.99,-0.8,-0.93,inactive
FAM193A,1,0.29,0.25,0.21,0.4,inactive
RPL13AP17,1,-0.12,0.21,-0.16,-0.42,inactive
MINDY4,1,-1.37,-1.32,-1.42,-1.39,inactive
HES4,1,1.87,2.37,1.54,1.69,inactive
CACHD1,1,1.06,1.49,0.98,0.69,inactive
NALCN,1,-0.69,-0.51,-1.12,-0.46,inactive
MAST2,1,-0.65,-0.57,-0.77,-0.61,inactive
DBN1,1,-0.02,0.06,-0.16,0.03,inactive
